Assay: xn = mol fraction of the nth substance listed
Details: 101 kPa

CC[N+]1(C)CCCC1.O=S(=O)(F)[N-]S(=O)(=O)F + O=S(=O)(F)[N-]S(=O)(=O)F.[Na+]
Details | electrical conductivity [S/m] | mass density [kg/m3] | viscosity [mPa·s]
283 K, x2 = 0.3 | 0.076 | 1520 | –
283 K, x2 = 0.4 | 0.036 | 1570 | –
283 K, x2 = 0.5 | 0.014 | 1630 | –
283 K, x2 = 0.6 | 0.004 | 1710 | –
283 K, x2 = 0.7 | 0.001 | 1800 | –
293 K, x2 = 0.5 | 0.033 | 1630 | –
293 K, x2 = 0.6 | 0.01 | 1700 | –
293 K, x2 = 0.7 | 0.004 | 1790 | –
303 K, x2 = 0.3 | 0.233 | 1500 | 150
303 K, x2 = 0.4 | 0.123 | 1550 | 346
303 K, x2 = 0.5 | 0.065 | 1620 | 780
303 K, x2 = 0.6 | 0.024 | 1690 | 2059
303 K, x2 = 0.7 | 0.011 | 1780 | 5800
313 K, x2 = 0.4 | 0.201 | 1540 | 205
313 K, x2 = 0.5 | 0.118 | 1610 | 414
313 K, x2 = 0.6 | 0.05 | 1680 | 960
313 K, x2 = 0.7 | 0.025 | 1770 | 2300
323 K, x2 = 0.3 | 0.501 | 1480 | 66.1
323 K, x2 = 0.4 | 0.308 | 1530 | 130
323 K, x2 = 0.5 | 0.196 | 1600 | 240
323 K, x2 = 0.6 | 0.093 | 1670 | 490
333 K, x2 = 0.4 | 0.446 | 1520 | 85.9
333 K, x2 = 0.5 | 0.306 | 1590 | 153
333 K, x2 = 0.6 | 0.16 | 1660 | 280
333 K, x2 = 0.7 | 0.089 | 1750 | 530
343 K, x2 = 0.4 | 0.62 | 1510 | 59.5
343 K, x2 = 0.6 | 0.253 | 1650 | 171
343 K, x2 = 0.7 | 0.148 | 1740 | 292
353 K, x2 = 0.3 | 1.13 | 1460 | 26.2
353 K, x2 = 0.5 | 0.634 | 1570 | 70.8
353 K, x2 = 0.6 | 0.378 | 1640 | 113
353 K, x2 = 0.7 | 0.229 | 1730 | 175
363 K, x2 = 0.5 | 0.856 | – | 51.7
363 K, x2 = 0.6 | 0.543 | – | 77.7
363 K, x2 = 0.7 | 0.335 | – | 112
373 K, x2 = 0.3 | 1.67 | – | 16.5
373 K, x2 = 0.5 | 1.12 | – | 39.2
373 K, x2 = 0.7 | 0.464 | – | 76.2
383 K, x2 = 0.3 | 2.02 | – | 13.4
383 K, x2 = 0.4 | 1.72 | – | 21.1
383 K, x2 = 0.5 | 1.42 | – | 30.4
383 K, x2 = 0.6 | 0.971 | – | 41.2
383 K, x2 = 0.7 | 0.621 | – | 53
393 K, x2 = 0.3 | 2.37 | – | 11.1
393 K, x2 = 0.4 | 2.04 | – | 17.8
393 K, x2 = 0.5 | 1.75 | – | 23.8
393 K, x2 = 0.6 | 1.25 | – | 31.6
393 K, x2 = 0.7 | 0.8 | – | 37.7
403 K, x2 = 0.3 | – | – | 9.35
403 K, x2 = 0.4 | 2.54 | – | 14.8
403 K, x2 = 0.6 | 1.55 | – | 24.8

Reference: a compilation of properties of binary mixtures (doi:10.1021/acs.jpcc.9b05941)
